Laboratory results as given in the supplement of paper PMC3578754.
Fold change is the IC50 on the isolate divided by the IC50 on a reference virus; 1 = unchanged, higher = more resistant. Changes are given against the subtype B consensus. No active / inactive call. The values were gathered from many studies (numbered anew) with different assays, which the source does not name. Most viruses are clinical isolates; some are laboratory strains or clones with known resistance changes. Isolates with mixed residues are left out; stretches that were not sequenced show no change. Round top values that many isolates share are read here as limits; other very high values and 0.1 may be limits too.

Assays:
Experiment in all cases: fold change of IC50 against reference virus; higher = more resistant
delavirdine = compound: CC(C)Nc1cccnc1N1CCN(C(=O)c2cc3cc(NS(C)(=O)=O)ccc3[nH]2)CC1 [delavirdine]
Method: (§1)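 Cell-culture drug susceptibility tests of virus bearing the reverse transcriptase of each isolate, gathered from many studies.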

nevirapine = compound: Cc1ccnc2c1NC(=O)c1cccnc1N2C1CC1 [nevirapine]
Method: as §1

efavirenz = compound: O=C1Nc2ccc(Cl)cc2[C@@](C#CC2CC2)(C(F)(F)F)O1 [efavirenz]
Method: as §1

| Test System | fold change of IC50 against reference virus (delavirdine) | fold change of IC50 against reference virus (nevirapine) | fold change of IC50 against reference virus (efavirenz) |
| --- | --- | --- | --- |
| HIV-1 isolate 197 (reverse transcriptase changes: K102Q K103N S162C Y188L K277R, study 53) | 190 | 680 | 270 |
| HIV-1 isolate 592 (reverse transcriptase changes: K11T K20R V21I V35T T39K V60I K122E D123N K173A D177G V179I Y181C T200A I202V Q207A R211K V245Q E248D T286A E291D V292I I293V P294T E312D, study 14) | 21 | 122 | 0.8 |
| HIV-1 isolate 377 (reverse transcriptase changes: K102Q K103R S162C I178V V179D K277R I293V K347R R358K V435I S468P, study 111) | 27 | 16 | 19 |
| HIV-1 isolate 354 (reverse transcriptase changes: K102Q S162C Y188L K277R, study 110) | 9 | 500 | 109 |
| HIV-1 isolate 416 (reverse transcriptase changes: K102Q S162C M230L K277R, study 70) | 58 | 39 | 23 |
| HIV-1 isolate 533 (reverse transcriptase changes: V35T V60I D121H K122E I135T K173L Q174K D177E V179I Y181C T200A Q207A R211S V245K D250E T286A E291D V292I I293V E312D I326V, study 14) | 70 | 200 | 1.4 |
| HIV-1 isolate 1540 (reverse transcriptase changes: K102Q V106A S162C F227L K277R, study 53) | 3 | 680 | 8 |
| HIV-1 isolate 726 (reverse transcriptase changes: D67N K70R K122E I178M G196E R211K K219Q, study 25) | 3 | 1.6 | 0.8 |
| HIV-1 isolate 649 (reverse transcriptase changes: K101E K102Q S162C K277R, study 110) | 4.9 | 11.6 | 5 |
| HIV-1 isolate 582 (reverse transcriptase changes: K102Q V108I S162C K277R, study 110) | 1.3 | 3 | 1.7 |
| HIV-1 isolate 1292 (reverse transcriptase changes: K20R V21I V35T T39R K43E V60I K103N K122E D123N K173S Q174K D177E Q207A R211N V245Q A272P E291D I293V P294T E312D D324E I326R, study 14) | 26 | 33 | 18 |
| HIV-1 isolate 503 (reverse transcriptase changes: K102Q S162C I178V V179D K277R I293V K347R R358K V435I S468P, study 111) | 3.9 | 2.1 | 3.4 |
| HIV-1 isolate 1490 (reverse transcriptase changes: K11T K20R V21I V35T T39K K43E D123N K173T Q174K D177E V179I Y181S I202V Q207A R211S V245Q E248D T286A E291D V292I I293V E312D, study 14) | 6.9 | 35 | 1.1 |
| HIV-1 isolate 1502 (reverse transcriptase changes: K102Q S162C G190Q K277R I293V, study 55) | 6 | 600 | 300 |
| HIV-1 isolate 417 (reverse transcriptase changes: K102Q S162C P236L K277R, study 53) | 53 | 2 | 1 |
| HIV-1 isolate 409 (reverse transcriptase changes: L74V K102Q S162C G190V K277R I293V, study 55) | 0.1 | 600 | 270 |

| Test System | fold change of IC50 against reference virus (delavirdine) | fold change of IC50 against reference virus (nevirapine) | fold change of IC50 against reference virus (efavirenz) |
| --- | --- | --- | --- |
| HIV-1 isolate 351 (reverse transcriptase changes: E138Q, study 50) | 5 |  | 2.3 |
| HIV-1 isolate 773 (reverse transcriptase changes: K102Q S162C G190S K277R I293V, study 55) | 0.3 | 191 | 56 |
| HIV-1 isolate 594 (reverse transcriptase changes: K20R V35I I50V V60I K65R S68R K73L L74V V75A K101Q K102R K122E D123N I135V Q151M I178V M184V G190V I195T G196E K219E V276I Q278E A288S E297R, study 55) | 0.1 | 600 | 270 |
| HIV-1 isolate 864 (reverse transcriptase changes: M41L L74I K102Q S162C Y181C M184V L210W R211K T215Y L228R M230L K277R I293V T296S, study 70) | 161 | 600 | 5.3 |
| HIV-1 isolate 1509 (reverse transcriptase changes: K102Q S162C I178V K277R I293V K347R R358K V435I S468P, study 111) | 1 | 1 | 1 |
| HIV-1 isolate 445 (reverse transcriptase changes: K102Q K103N S162C G190A K277R, study 110) | 37 | 500 | 213 |
| HIV-1 isolate 1225 (reverse transcriptase changes: K102Q S162C G190C K277R I293V, study 55) | 0.1 | 170 | 170 |
| HIV-1 isolate 39 (reverse transcriptase changes: K49R K103N K122E S162C E169D I178M M184V I195T T200A R211K M230L V245M D250E K275Q V276I T286A I293V P294T, study 70) | ≥ 250 | 600 | 270 |
| HIV-1 isolate 1323 (reverse transcriptase changes: E138Y, study 50) | 0.8 |  | 0.5 |
| HIV-1 isolate 981 (reverse transcriptase changes: E138K, study 50) | 6.3 |  | 1.4 |
| HIV-1 isolate 755 (reverse transcriptase changes: none, study 50) | 1 |  | 1 |
| HIV-1 isolate 327 (reverse transcriptase changes: K101E K102Q K103N S162C K277R I293V R358K V435I S468P K550G, study 27) |  |  | ≥ 500 |
| HIV-1 isolate 1068 (reverse transcriptase changes: E138A, study 50) | 8.8 |  | 1.7 |
| HIV-1 isolate 1107 (reverse transcriptase changes: A98G K102Q S162C K277R I293V R358K V435I S468P K550G, study 27) |  |  | 4 |
| HIV-1 isolate 1053 (reverse transcriptase changes: D123E G141R R172K D177E V179D T200I Q207E R211K I293V P294Q E297K I375V V435I K550R A554T, study 140) |  |  | 11 |
| HIV-1 isolate 486 (reverse transcriptase changes: K102Q V108I S162C K277R I293V R358K V435I S468P K550G, study 27) |  |  | 1 |
